Compound potency records, mixed from different reports. Data source: NIAID ChemDB in PubChem.

Common to all: whole-cell or culture tests; species: Rhinovirus; read-out: EC50

ECn: concentration that inhibits the pathogen or its effect by n%.

structure | strain or isolate | read by | cell line | result
Cc1ccc(Cn2cnc3c(N(C)C)nc(C(F)(F)F)nc32)c(C)c1 | Serotype 19 | plaque count | M-HELA | >8 µM
Fc1cccc(Cn2cnc3c(Nc4cccc(F)c4)nc(C(F)(F)F)nc32)c1 | Serotype 19 | plaque count | M-HELA | 3.6 µM
CSc1nsc(-c2ccc(OCCc3ccccc3)cc2)c1C#N | Serotype 45 (group A) | cytopathic effect | HELA-OHIO | >20 µM
Cc1cc(CCCOc2c(C)cc(-c3noc(C(F)(F)F)n3)cc2C)on1 | Isolate 13 | cytopathic effect / visual reading | OHIO HELA-I | 0.02 µg/mL
CCOC(=O)c1ccc(OCCOc2ccc(-c3snc(SC)c3C#N)cc2)cc1 | Serotype 42 (group A) | cytopathic effect | HELA-OHIO | >2 µM
Cc1cc(CCCCCOc2c(Cl)cc(C3=NCCO3)cc2Cl)on1 | TYPE 72 | plaque count | HeLa | 0.62 µg/mL
CN(C)c1ccc(Cn2cnc3c(N(C)C)nc(C(F)(F)F)nc32)cc1 | Serotype 1B | plaque count | M-HELA | 0.29 µM
CN(c1cccc(F)c1)c1nc(C(F)(F)F)nc2c1ncn2Cc1cccc(F)c1 | Serotype 4 | plaque count | M-HELA | >10 µM
CN(C)c1nc(C(F)(F)F)nc2c1ncn2Cc1cccc(F)c1 | Serotype 13 | plaque count | M-HELA | >8 µM
CCOC(=O)c1ccc(OCCCCOc2ccc(-c3snc(SC)c3C#N)cc2)cc1 | Serotype 15 (group B) | cytopathic effect | HELA-OHIO | >2 µM
CSc1nsc(-c2ccc(OC(C)(C)C)cc2)c1C#N | Serotype 45 (group A) | cytopathic effect | HELA-OHIO | >40 µM
CSc1nsc(-c2ccc(OCCCOc3ccc(C#N)cc3)cc2)c1C#N | Serotype 63 (group B) | cytopathic effect | HELA-OHIO | >2 µM
CN(C)c1nc(C(F)(F)F)nc2c1ncn2Cc1ccc(Cl)c(N)c1 | Serotype 29 | plaque count | M-HELA | >8 µM
CSc1nsc(-c2ccc(OCCOc3ccccc3)cc2)c1C#N | Serotype 70 (group A) | cytopathic effect | HELA-OHIO | >20 µM
CCOC(=O)c1ccc(OCCC2CCN(c3ccc(C)nn3)CC2)cc1 | JM1 (ICAM-1 receptor group 91) | neutral red | KB | 0.271 µM
CCOC(=O)c1ccc(OCCCOc2ccc(-c3snc(SC)c3C#N)cc2)cc1 | Serotype 42 (group A) | cytopathic effect | HELA-OHIO | >2 µM
CN(C)c1nc(C(F)(F)F)nc2c1ncn2Cc1ccc([N+](=O)[O-])cc1 | Serotype 1B | plaque count | M-HELA | 0.07 µM
COc1ccc(-c2snc(SC)c2C#N)cc1 | Serotype 72 (group A) | cytopathic effect | HELA-OHIO | >12 µM
CN(C)c1nc(C(F)(F)F)nc2c1ncn2Cc1ccc(Cl)c(NC=O)c1 | Serotype 21 | plaque count | M-HELA | >8 µM
CSc1nsc(-c2ccc(OCCCc3ccccc3)cc2)c1C#N | Serotype 15 (group B) | cytopathic effect | HELA-OHIO | >20 µM
CN(C)c1nc(C(F)(F)F)nc2c1ncn2Cc1ccc(Br)cc1 | Serotype 5 | plaque count | M-HELA | >8 µM
CSc1nsc(-c2ccc(OS(=O)(=O)c3ccc(C)cc3)cc2)c1C#N | Serotype 29 (group B) | cytopathic effect | HELA-OHIO | 1 µM

For reference, 2 entries again:

| structure | strain or isolate | read by | cell line | result |
|---|---|---|---|---|
| CCOC(=O)c1ccc(OCCOc2ccc(-c3snc(SC)c3C#N)cc2)cc1 | Serotype 42 (group A) | cytopathic effect | HELA-OHIO | >2 µM |
| Cc1cc(CCCCCOc2c(Cl)cc(C3=NCCO3)cc2Cl)on1 | TYPE 72 | plaque count | HeLa | 0.62 µg/mL |

Lines come from different laboratories, so protocols vary.